# Measurements reported in PubChem BioAssay AID504761 (Drosophila RNAi Screening Center, 2011)
# Purpose: 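Fly genes whose silencing reduces dengue virus type 2 infection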 (primary screen)
# Cells: D.Mel-2 cells from Drosophila
# Knock-down reagent: long dsRNA against Drosophila genes
# Conditions: infection with dengue virus type 2; dose and infection time not stated
# Read-out: 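Cells stained for dengue envelope protein and imaged; percent of infected cells per well on duplicate plates, ranked by infection, with stained nuclei counted for cell number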
# Scale: infection score: higher = more virus-infected cells
# Active means: 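Low infection ranks in the two replicates (chance level up to 0.065) followed by a retest with a 1.5-fold or larger significant decrease, p below 0.05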
# Calls: active = confirmed: knock-down lowers infection; inactive = not picked or not confirmed
# The screen tested about 22,000 reagents; this is an unselected part of those that have a named target and a result. Over the whole deposit, 116 (0.52%) are marked active. 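Calls depend on retest data that are not deposited; infection was ranked per plate without normalising between plates; the unit of the infection score is not given.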 A plus sign joins genes that one reagent is predicted to hit. Further read-outs or replicates are left out here. The record does not give: the amount of reagent, the time to read-out.
target,dsRNA,"infection score, replicate 1","infection score, replicate 2",Call
TwdlG,DRSC12229,2.75,6.1,inactive
TwdlG,DRSC27678,10.6,7.8,inactive
chas,DRSC19508,23.1,8.51,inactive
chas,DRSC19509,11.7,5.07,inactive
chas,DRSC29130,8.87,,inactive
CG4101,DRSC10400,3.78,6.1,inactive
alphaSnap,DRSC11285,7.46,1.73,inactive
alphaSnap,DRSC29788,9.5,10.3,inactive
CG12116,DRSC17812,15.3,6.4,inactive
CG3919,DRSC10389,3.84,3.93,inactive
Nbr,DRSC03166,11.5,34,inactive
Mco4,DRSC20061,6.78,4.39,inactive
Mco4,DRSC27932,12.9,13.8,inactive
RpL8,DRSC08532,4.81,4.47,inactive
RpL8,DRSC08695,3.42,5.24,inactive
RpL8,DRSC29905,15.2,8.92,inactive
S1P,DRSC11810,1.58,5.7,inactive
ste24c + CG30461,DRSC05639,4.73,6.01,inactive
ste24c + CG30461,DRSC07316,16.3,5.52,inactive
Mayo,DRSC14300,8.87,,inactive
IKKbeta,DRSC16714,19.1,20.2,inactive
CG5021,DRSC10469,5.29,4.48,inactive
CG33453,DRSC05782,2.07,1.08,inactive
Uck,DRSC16028,1.88,1.13,inactive

The list goes on (4 carried over from the part before).
target,dsRNA,"infection score, replicate 1","infection score, replicate 2",Call
IKKbeta,DRSC16714,19.1,20.2,inactive
CG5021,DRSC10469,5.29,4.48,inactive
CG33453,DRSC05782,2.07,1.08,inactive
Uck,DRSC16028,1.88,1.13,inactive
CG13727,DRSC10055,6.15,2.13,inactive
CG15514,DRSC15053,5.76,8.02,inactive
CG15514,DRSC29785,13.2,1.32,inactive
CG14196,DRSC19551,6.41,2.23,inactive
CG14196,DRSC26030,10.9,4.3,inactive
Ugt50B3,DRSC04778,10.2,1.72,inactive
Ugt50B3,DRSC21419,4.41,5.54,inactive
CG14332,DRSC14811,,18.5,inactive
RpL30,DRSC02087,6.37,6.74,inactive
Smn,DRSC10223,0.38,5.28,inactive
Coa7,DRSC20967,3.76,5.2,inactive
Coa7,DRSC27224,10.4,12.4,inactive
rt,DRSC11391,2.22,4.34,inactive
Srg2 + CG42826,DRSC10681,10.9,6.88,inactive
Srg2 + CG42826,DRSC10682,5.06,11.8,inactive
Srg2 + CG42826,DRSC24667,9.28,9.82,inactive
Sin1,DRSC05965,10.1,16.2,inactive
smog,DRSC00334,31.5,7.74,inactive
smog,DRSC23053,2.81,11.4,inactive
smog,DRSC27223,15.1,28.9,inactive
CG5849,DRSC15893,9.49,0.62,inactive
vito,DRSC21781,3.87,1.84,inactive
vito,DRSC24852,6.55,11.4,inactive
pAbp,DRSC07659,32.5,29.7,inactive
CG14329,DRSC14808,1.45,0.37,inactive
phtm,DRSC20237,7.82,4.69,inactive
phtm,DRSC26997,17.9,5.44,inactive
Myd88,DRSC06815,13.8,15.2,inactive
Myd88,DRSC28830,6.67,20,inactive
CG4238,DRSC00644,16.4,7.66,inactive
nuf,DRSC11379,0.78,1.28,inactive
nuf,DRSC23276,1.33,11.4,inactive
nuf,DRSC26784,4.09,4.79,inactive
nuf,DRSC29086,17.6,10.3,inactive
